Patent publication US7259172B2, “Inhibitors of β-lactamase” (priority 1999, dated 2007)
Like-named read-outs stand apart in the source and are kept apart here.

The chains behind the UniProt entries cited, without tags or fusion partners. Residues count along the entry.
UniProt P05364, 21-381 limits assumed: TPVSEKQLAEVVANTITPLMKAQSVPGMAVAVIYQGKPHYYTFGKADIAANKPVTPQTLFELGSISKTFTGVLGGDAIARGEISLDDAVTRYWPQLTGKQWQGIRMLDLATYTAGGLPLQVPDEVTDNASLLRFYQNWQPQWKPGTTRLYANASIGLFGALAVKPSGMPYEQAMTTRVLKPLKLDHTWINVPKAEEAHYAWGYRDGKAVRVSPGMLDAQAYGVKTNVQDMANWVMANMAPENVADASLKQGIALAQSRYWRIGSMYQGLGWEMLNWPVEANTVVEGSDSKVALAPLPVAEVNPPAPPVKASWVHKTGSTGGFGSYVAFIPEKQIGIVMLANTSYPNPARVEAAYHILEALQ
UniProt P52700, 34-290 limits assumed: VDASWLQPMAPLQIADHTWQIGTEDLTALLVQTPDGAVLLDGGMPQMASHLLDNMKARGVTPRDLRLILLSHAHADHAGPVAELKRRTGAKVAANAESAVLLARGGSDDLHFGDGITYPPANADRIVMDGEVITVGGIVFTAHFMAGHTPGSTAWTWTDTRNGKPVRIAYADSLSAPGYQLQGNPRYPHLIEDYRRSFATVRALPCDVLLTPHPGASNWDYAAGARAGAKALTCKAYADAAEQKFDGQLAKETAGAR

Assays:
[1] = target: P99 β-lactamase (class C) (Enterobacter cloacae, UniProt P05364)
[2] = system: Enterobacter cloacae [ATCC #23355]; details: for Synergy Class C E. Cl: ratio antibiotic MIC without/with inhibitor, inhibitor 10 μg/mL; for Synergy Class C E. Cl (ratio of antibiotic MIC without inhibitor to MIC with inhibitor): Table 2, inhibitor concentration 10 μg/mL, Enterobacter cloacae [ATCC #23355]; for Synergy (at μg/mL) Class C E. Cl 10/1: tested form: drawn as the phosphonate monoanion, coun
L-1 β-lactamase = L-1 β-lactamase (Stenotrophomonas maltophilia, UniProt P52700); experiment: Determination of IC50, nitrocefin hydrolysis by L-1 β-lactamase; details: read-out: IC50 (μM) “B”; Table 2; Class B β-lactamase [L-1]
[3] = system: TEM R+ β-lactamase (class A); experiment: Determination of IC50, nitrocefin hydrolysis by TEM R+ β-lactamase; format: biochemical; details: read-out: IC50 (μM) “A”, Table 2
Experimental: Enzyme activity against the commercially available substrate, nitrocefin, was measured in the presence of various inhibitor concentrations. The P99 β-lactamase enzyme (1 mg/mL) was dissolved in 20 mM MOPS buffer at pH 7.50, and diluted 200-fold in the same buffer containing 0.1% BSA. Nitrocefin was stored as a 100 μM stock solution in 20 mM MOPS at pH 7.5. Stock solutions of test compounds were prepared in 10 mM MOPS at pH 7.5 (approximately 1 mg/mL)
A typical assay contained 300 μL of 100 μM nitrocefin, x μL of inhibitor test compound, 110-x μL of MOPS, and 10 μL of P99 β-lactamase. The reaction at 25° C. was followed spectrophotometrically at 482 nm. IC50 values were determined from the dose-response plots of the initial rates vs. inhibitor concentration
TEM R+ and L-1 […]-lactamases were assayed as described above for P99 […]-lactamase.

[4] = system: Staphylococcus aureus [MGH:MA #50848]; experiment: Antibiotic MIC in presence and absence of β-lactamase inhibitor (synergy); format: cell-based
Excerpt: (§1) An increasing number of organisms produce enzymes that inhibit the actions of β-lactam antibiotics, so-called β-lactamases. The “strength” of β-lactam antibiotics can be improved by pairing them with compounds that inhibit bacterial enzyme β-lactamases. The Minimum Inhibitory Concentration (MIC) test determines the lowest concentration of an antibiotic at which no visible bacterial growth occurs. This test permits comparisons to be made between bacterial growth in the presence of antibiotic alone (control) and bacterial growth in the presence of both an antibiotic and a novel (test) compound.
(§2) • β-lactamase positive strains • β-lactam antibiotics • β-lactamase inhibitor compounds • appropriate bacterial growth medium β-Lactamase Positive Strains • Klebsiella oxytoca [ATCC#51983] • Staphylococcus aureus [MGH: MA#50848] • Enterococcus faecalis [ATCC#49757] • Enterobacter cloacae [ATCC#23355] • Haemophilus influenzae [ATCC#43163] β-Lactam antibiotics
(§3) Frozen bacterial stocks were thawed to room temperature, and a few drops were placed on an appropriate plate; chocolate agar was used for H. influenzae, blood agar was used for all others. The plates were incubated overnight at 37° C. in air, except for H. influenzae, which was incubated in a CO2 incubator. The cultures were subcultured the following day, and the subcultures were again incubated overnight
(§4) A sterile loop was touched to 3 colonies and used to inoculate 1 mL of Mueller-Hinton Broth (MHB). The bacterial solution was diluted 18.8-fold (20 μL of bacterial solution in […] of broth). 5 μL of the resultant inoculum solution contained ˜4×10^4 CFU/mL. Confirmation of the inoculum was performed by preparing a serial dilution to give 100 μL of a 5000-fold dilution, all of which was then plated onto an appropriate plate. After incubation overnight at 37° C., the plate had 75-150 colonies.
(§5) In each well of a 96-well microtiter plate was combined 5 μL of bacterial inoculum, 90 μL of antibiotic dilutions, and 5 μL of test compound (or media for determination of the MIC of the antibiotic in the absence of test compound). Each plate included 2 wells with no bacterial inoculum (negative control) and 2 wells with no test compound and no antibiotic (positive control). The plate was covered and incubated with gentle shaking for 16-20 hours at 37° C. in air (CO2 for H. influenzae). Absorbance was read at 540 nm (Multiskan Titertek mcc/340). Bacterial growth was scored as follows: […]
(§6) The impact of the novel β-lactamase inhibitors is expressed as the ratio of the MIC determined in the absence of β-lactamase inhibitor to the MIC determined in the presence of the specified concentration of the β-lactamase inhibitor test compound. […]

[5] = system: Enterococcus faecalis [ATCC#49757]; experiment: as above; format: cell-based; details: Table 4; inhibitor 10 μg/ml; tested form: drawn as the phosphonate mono-anion; cou
Excerpt: as §1, §2, §3, §4, §5, §6

[6] = system: Enterobacter cloacae (derepressed); experiment: Synergy against highly resistant β-lactamase positive strains; format: cell-based; details: Table 4, inhibitor 10 μg/ml, tested form: drawn as the phosphonate mono-anion, cou
Experimental: as §3
A sterile loop was touched to 3 colonies and used to inoculate 1 mL of Mueller-Hinton Broth (MHB). The bacterial solution was diluted 18.8-fold (20 μL of bacterial solution in […] of broth). 5 μL of the resultant inoculum solution contained ˜4×10^4 CFU/mL. […]
In each well of a 96-well microtiter plate was combined 5 μL of bacterial inoculum, 90 μL of antibiotic dilutions, and 5 μL of test compound (or media for determination of the MIC of the antibiotic in the absence of test compound). […] Absorbance was read at 540 nm (Multiskan Titertek mcc/340). Bacterial growth was scored as follows: […]
as §6

[7] = system: Haemophilus influenzae [ATCC #43163]; experiment: Antibiotic MIC in presence and absence of β-lactamase inhibitor (synergy); format: cell-based; details: inhibitor at 10 μg/mL (first or only figure of cell); tested form: drawn as the phosphonate monoanion; coun
Excerpt: as §1, §2, §3, §4, §5, §6

[8] = read-out: IC50 (μM) “C”, Table 2, Class C β-lactamase [P99]
[9] = Table 4, inhibitor 10 μg/ml, tested form: drawn as the phosphonate mono-anion, cou
[10] = read-out: IC50 (μM) “C”, Class C β-lactamase [P99], Table 1

O=P(O)(O)CNS(=O)(=O)c1cc2ccccc2o1
IC50 ([1]; read-out: IC50 (μM) “C”, Class C β-lactamase [P99], Table 1, tested form: Na salt): 83 µM | Synergy Class C E. Cl ([2]; tested form: Na salt): 8

O=[N+]([O-])c1ccc(/C=C/C(NS(=O)(=O)c2cccs2)P(=O)(O)O)cc1 (stereo not drawn)
IC50 (L-1 β-lactamase): > 200 µM | IC50 [3]: > 200 µM | IC50 [1, 8]: 128 µM | Synergy Class C E. Cl (ratio of antibiotic MIC without inhibitor to MIC with inhibitor) [2]: 0

COc1cc(C(OP(=O)(O)CNS(=O)(=O)c2cc3c(Cl)ccc(Cl)c3s2)C(F)(F)F)ccc1F (stereo not drawn)
Synergy at 10 μg/ml Stap. Aureus [4, 9]: 0 | Synergy at 10 μg/ml Ent. Faec. [5]: 0 | IC50 ([1]; read-out: IC50 (μM) “C”, Table 4, some cells marked MD or (75 μM NC), tested form: drawn as the phosphonate mono-anion, cou): > 500 µM | Synergy at 10 μg/ml Ent. Cl. [2, 9]: 4 | Synergy at 10 μg/ml P99 Ent. Bact. [6]: 0

CO/N=C(/C(=O)NCP(=O)(O)O)c1cccs1
Synergy (at μg/mL) Class A St. A 10 ([4]; inhibitor at 10 μg/mL, tested form: drawn as the phosphonate monoanion, coun): 0 | Synergy (at μg/mL) Class A H. In. 10/1 [7]: 0 | IC50 ([1]; read-out: IC50 (μM) "C", class C β-lactamase, K = thousand, tested form: drawn as the phosphonate monoanion, coun): 1600 µM | Synergy (at μg/mL) Class C E. Cl 10/1 ([2]; inhibitor at 1 μg/mL (second figure of cell)): 0 | Synergy (at μg/mL) Class C E. Cl 10/1 ([2]; inhibitor at 10 μg/mL (first figure of cell)): 4

O=P(O)(CNS(=O)(=O)c1cc2ccccc2s1)OCc1ccccc1
IC50 [1, 10]: 96 µM | Synergy Class C E. Cl [2]: 4

O=P(O)(O)C(CCc1cccnc1)NS(=O)(=O)c1cccs1 (stereo not drawn)
IC50 (L-1 β-lactamase): > 200 µM | IC50 [3]: > 200 µM | IC50 [1, 8]: 84 µM | Synergy Class C E. Cl (ratio of antibiotic MIC without inhibitor to MIC with inhibitor) [2]: 0

O=P(O)(O)CNS(=O)(=O)c1cc2ccccc2s1
IC50 [1, 10]: 446 µM | Synergy Class C E. Cl [2]: 2
